Source: patent US20210317193A1

What follows are binders tested against various native α-toxin (from the strains tested) (assay: cell-based or functional assay).

Row | Binder | inhibition of native α-toxin-mediated RBC lysis
1 | mouse monoclonal antibody 25A1 (antibody, V domains shown) VH: QVKLQQSGPELVKPGASVKISCKASGYSFTDYNMNWVKQSHGKSLEWIGSINPYYGITSYNQTFKGKATLTVDKSSSTAYMQLNSLTSEDSAVYYCARIYYGDSLGLDYWGQGTTVTVSS VL: DIELTQSPAIMSASPGEKVTMTCSASSSVSYMHWYQQKSGTSPKRWIYDTSKLASGVPARFSGSGSGTSYSLTISSMEAEDAATYYCQQWSSNPLTFGAGTKLEIKR | 50 to 90%
2 | humanized antibody 25A1-B2B4AQT (antibody, V domains shown) VH: QVQLVQSGAEVKKPGASVKVSCKASGYSFTDYNMNWVRQAPGQGLEWMGSINPYYGITSYAQTFKGRVTLTVDKSISTAYMELSRLRSDDTAVYYCARIYYGDSLGLDYWGQGTLVTVSS VL: EIVLTQSPATLSLSPGERATLSCSASSSVSYMHWYQQKPGQAPRRWIYDTSKLASGIPARFSGSGSGTDFTLTISSLEPEDFAVYYCQQWSSNPLTFGQGTKVEIK | 50 to 90%
3 | humanized antibody 25A1-B5B6AQT (antibody, V domains shown) VH: QVQLVQSGAEVKKPGASVKVSCKASGYSFTDYNMNWVRQAPGQGLEWMGSINPYYGITSYAQTFKGRVTLTVDTSISTAYMELSRLRSDDTAVYYCARIYYGDSLGLDYWGQGTLVTVSS VL: EIVLTQSPATLSLSPGERATLSCSASSSVSYMHWYQQKPGQAPRRLIYDTSKLASGIPARFSGSGSGTDFTLTISSLEPEDFAVYYCQQWSSNPLTFGQGTKVEIK | 50 to 90%
